Pooled drug test results. Numbers come from NIAID ChemDB, via PubChem.

Common to all: toxicity to cultured cells; read-out: CC50

Blank or dashed fields: not listed here.

smiles,read by,cells,result
Nc1nc(=O)n([C@@H]2O[C@@H](CO)[C@H](O)[C@H]2F)cc1I,,FLOW 2002,100 µg/mL
CNC(=O)/C=C(\c1ccccc1)c1ccc2nc(N)c(SC(C)C)n2c1,,H-HELA,10 µg/mL
C=C1CC2C[C@@H](OC(=O)c3ccccc3)[C@H]3[C@](C)(C(=O)O)CCC[C@]3(C)C23CCC1C3,,HELA229,0.2 µg/mL
N#Cc1cccc(S(=O)(=O)N(Cc2c(Cl)cccc2Cl)c2cccc(C(=O)NC3CCC3)c2)c1,absorbance,SG-Neo (L+I),30 µM
C=C1C[C@@H](OC(=O)c2ccccc2)[C@H]2[C@](C)(C(=O)O)CCC[C@]2(C)C1CCC(C)=O,,HELA229,0.94 µg/mL
Nc1ccn([C@@H]2C[C@@H](O)[C@H](CO)O2)c(=O)n1,,FLOW 2002,>100 µg/mL
Cc1cccnc1CN(C)Cc1nc2ccccc2[nH]1,MTT,C8166,>10 µM
O=C(Nc1ccc(Cl)cc1)C(=O)NC1CCNC2(CCCCC2)C1,WST,PM1,213 µM
COc1cc(/C=C/c2ccc3c(c2)[C@H](c2cc(OC)cc(OC)c2)[C@@H](c2ccc(O)cc2)O3)cc(OC)c1,MTT,MDCK,118.1 µg/mL
Nc1nc2c(ncn2COCCO)c(=O)[nH]1,,P3HR-1,255 µM
CCOC(=O)CCCCCOc1cccc(CN(C(=O)c2ccc(-c3cccc(OC)c3)cc2)C(C)C)c1,,RAJI,>20 µM
C=C1[C@H](O)[C@H](CO)O[C@@H]1n1ccc(N)nc1=O,,FLOW 2002,>100 µg/mL
CC(C)(C)OC(=O)NCCN1CCC(NC(=O)C(=O)Nc2ccc(Cl)cc2)CC12CCCCC2,WST,PM1,61 µM
c1ccc(-n2nccc2CCCCCCOc2ccc3c(c2)oc2ccccc23)cc1,crystal violet,WIS HELA,>50 µg/mL
CN1CCN(c2ccnc3nc(CN(CCCCN)Cc4ncc[nH]4)[nH]c23)CC1,MTT,C8166,>10 µM
O=c1[nH]ncc(NN/C=C2/C=NC3C=CC=CC23)c1Cl,,MDM,>100 µM
Cc1cnsc1CCCCCCOc1cccc2ccccc12,crystal violet,WIS HELA,>50 µg/mL
Nc1ccn([C@@H]2O[C@H](CO)C3OC32)c(=O)n1,,TM11,5 µM
Nc1ccn([C@H]2O[C@@H](CO)[C@H](O)[C@@H]2O)c(=O)n1,,FLOW 2002,100 µg/mL
COC(=O)c1cccc(-c2ccc(OCc3cnc(CS(=O)c4nc5ccccc5[nH]4)c(C)c3)cc2)c1,MTT,HEK293T,30 µM
CC(C)(C)OC(=O)NCC(=O)NCCN1CCC(NC(=O)C(=O)Nc2ccc(Cl)cc2)CC12CCCCC2,WST,PM1,19 µM
CC(C)N(Cc1cccc(OCCCCCC(=O)OC(=O)O)c1)C(=O)c1ccc(-c2cccc(F)c2)cc1,,RAJI,>20 µM
Cc1cc(OCc2ccc(-c3cccc(C(=O)O)c3)cc2)cnc1CS(=O)c1nc2ccccc2[nH]1,MTT,HEK293T,80 µM
CCOC(=O)CCCCCOc1cccc(CN(C(=O)c2ccc(-c3cccc(N(C)C)c3)cc2)C(C)C)c1,,RAJI,>20 µM
COC(=O)c1cccc(-c2ccc(OCCCOc3cnc(CS(=O)c4nc5ccccc5[nH]4)c(C)c3)cc2)c1,MTT,HEK293T,110 µM
Cc1cc(CCCCCCCOc2ccc3ccccc3c2)on1,crystal violet,WIS HELA,50 µg/mL
O=C(NCc1ccccc1)c1ccc(-c2ccc3c(c2)OCO3)cc1,,BJ,>20 µM
COc1ccc(N(Cc2c(Cl)cccc2Cl)S(=O)(=O)c2cccc(C#N)c2)cc1C(=O)O,absorbance,NHDF,>33 µM
Cc1cc(COc2ccc(-c3cccc(-c4nn[nH]n4)c3)cc2)cnc1CS(=O)c1nc2ccccc2[nH]1,MTT,HEK293T,125 µM
CC(C)(C)OC(=O)NCCCCC(=O)NCCN1CCC(NC(=O)C(=O)Nc2ccc(Cl)cc2)CC12CCCCC2,WST,PM1,56 µM
N#Cc1c(-c2ccco2)nc(SCC(=O)Nc2nc(-c3ccccc3)cs2)[nH]c1=O,,MDM,>100 µM
COc1ccccc1CNC(=O)C1=Cc2ccncc2CC1,,MA-104,93 µM
Nc1ccn([C@@H]2O[C@@H](CO)[C@@H](O)[C@@H]2O)c(=O)n1,,FLOW 2002,>100 µg/mL
CC(C)Oc1ccccc1CNC(=O)c1ccc2cnccc2n1,,MA-104,13 µM
CNC(=O)/C=C(\c1ccccc1)c1ccc2nc(N)c(-c3cc(F)ccc3F)n2c1,,H-HELA,4.87 µg/mL
Cn1cc(C(=O)O)c(=O)c2cc(N)c(N3CCN(c4nc5ccccc5o4)CC3)cc21,,C3H/3T3,0.6 µg/mL
Cc1cc(OCCCCCCc2ccnn2-c2ccccc2)c2ccccc2n1,crystal violet,WIS HELA,25 µg/mL
Nc1nc2c(ncn2[C@@H]2C=C[C@H](CO)C2)c(=O)[nH]1,,PBM,7 µM
CCOC(=O)CCCCCOc1cccc(CN(C(=O)c2ccc(-c3cccc(NC=O)c3)cc2)C(C)C)c1,,HEK 293,>20 µM
Nc1cc2c(=O)c(C(=O)O)cn(C3CC3)c2cc1N1CCN(c2nc3ccccc3s2)CC1,,C3H/3T3,0.12 µg/mL
CC1(C)C(=O)C=C[C@]2(C)[C@@H]1CC[C@@]13CC[C@@H](C[C@H]12)[C@](O)(CO)C3,MTT,HepG2/ADR,>100 µM
Cc1cc(CCCCCCCOC23CC4CC(CC(C4)C2)C3)on1,crystal violet,WIS HELA,50 µg/mL
CCN(CC)c1ccc(-c2cn3c(=O)c4ncn([C@H]5CO[C@@H](CO)O5)c4nc3[nH]2)cc1,,PBM,>100 µM
COc1ccc(C)cc1OCCBr,,HEK 293,>20 µM
CN1CCN(c2ccnc3nc(CN(CCCCN)Cc4ccccn4)[nH]c23)CC1,MTT,C8166,>10 µM
C/C=C(\C)C(=O)OC[C@]1(C)C(=O)CC[C@@]2(C)[C@@H]3CC[C@H]4C[C@@]3(CC[C@@H]21)C[C@@]4(O)CO,MTT,HepG2/ADR,>100 µM
NC(N)=NCC(=O)NCCN1CCC(NC(=O)C(=O)Nc2ccc(Cl)cc2)CC12CCCCC2,WST,PM1,33 µM
Cn1cc(C(=O)O)c(=O)c2cc(N)c(N3CCN(c4nccs4)CC3)cc21,,C3H/3T3,2.8 µg/mL
Cc1cc(OCCCOc2ccc(-c3cccc(-c4nn[nH]n4)c3)cc2)cnc1CS(=O)c1nc2ccccc2[nH]1,MTT,HEK293T,75 µM
CCCN(Cc1ccccc1OCC(=O)O)C(=O)c1ccc(-c2ccc3c(c2)OCO3)cc1,,BJ,>20 µM
NC(N)=NCCN(CCN=C(N)N)CCN1CCC(NC(=O)C(=O)Nc2ccc(Cl)cc2)CC12CCCCC2,WST,PM1,105 µM
COC(=O)c1ccc(OCCCOc2cnc(CS(=O)c3nc4ccccc4[nH]3)c(C)c2)cc1OC,MTT,HEK293T,10 µM
[N-]=C=Nc1nncs1,,PRMK,1 µg/mL

Again, the opening 4 rows:

Nc1nc(=O)n([C@@H]2O[C@@H](CO)[C@H](O)[C@H]2F)cc1I ; cells: FLOW 2002 ; result: 100 µg/mL
CNC(=O)/C=C(\c1ccccc1)c1ccc2nc(N)c(SC(C)C)n2c1 ; cells: H-HELA ; result: 10 µg/mL
C=C1CC2C[C@@H](OC(=O)c3ccccc3)[C@H]3[C@](C)(C(=O)O)CCC[C@]3(C)C23CCC1C3 ; cells: HELA229 ; result: 0.2 µg/mL
N#Cc1cccc(S(=O)(=O)N(Cc2c(Cl)cccc2Cl)c2cccc(C(=O)NC3CCC3)c2)c1 ; read by: absorbance ; cells: SG-Neo (L+I) ; result: 30 µM

CCn: concentration that lowers growth or viability of the cells by n%. Lines come from different laboratories, so protocols vary.